Pooled drug test results. Numbers come from NIAID ChemDB, via PubChem.

All rows: growth or infection tests; species: Mycobacterium tuberculosis

Rows are shuffled and stem from different studies. Percent inhibition refers to the dose given; in toxicity tests it is the harm to the cells. ECn is the concentration giving n% inhibition of infection, replication or growth. An empty or dashed field is not shown. MIC bound: limit read from a one-dose screen. A number after MIC or MFC names an inhibition level or a share of isolates.

smiles,strain,tested at,cells,read by,changes,setting,measure,result
CCCCCCCCCN1C(=O)CC(SCCNC(=O)C2CCCC2)C1=O,Clinical isolate (isoniazid-resistant),,,,,,MIC,≤20 µg/mL
CC(=O)OC1CCn2nnc(COC(=O)NC(C)C)c21,H37Rv,6.25 µg/mL,,resazurin,,,inhibition,15%
CCCCCO/N=C/c1c2c(O)c3c(O)c(C)c4c(c3c1O)C(=O)[C@@](C)(O/C=C/[C@H](OC)[C@@H](C)[C@@H](OC(C)=O)[C@H](C)[C@H](O)[C@H](C)[C@@H](O)[C@@H](C)/C=C/C=C(/C)C(=O)N2)O4,H37Rv,,,,,,MIC,1 µg/mL
COc1nc2ccc(Br)cc2cc1[C@@H](c1ccccc1)[C@@](O)(CCN(C)C)c1cccc2ccccc12,clinical isolate MAL020139,,,resazurin,,,MIC90,0.03125 µg/mL
C[C@]1(COc2ccc(N3CCC(Oc4ccc(OC(F)(F)F)cc4)CC3)cc2)Cn2cc([N+](=O)[O-])nc2O1,31 strains (rifampicin-susceptible),,,,,,MIC90,0.012 µg/mL
COC1C(O)C(C)OC(OC2C(Oc3cccc4c(O)c5c(=O)oc6ccc(C)c7c(=O)oc(c34)c5c67)OC(C)C3OC(c4ccccc4)OC32)C1O,H37Rv,,,resazurin,,,MIC bound,>6.25 µg/mL
CCCCCCCCCN1C(=O)CC(SCCN)C1=O,H37Ra,,,,,,MIC,≤20 µg/mL
O=C1c2ccccc2-c2ccc(-n3c(=O)c4ccccc4c4ccccc4c3=O)cc21,H37Rv,12.5 µg/mL,,BACTEC,,,inhibition,22%
C/C(=N\NC(=O)c1ccncc1)c1cccc(Br)c1,16PI,,,,,,MIC,>20 µg/mL
CCCCCCCCCN1C(=O)CCCC1=O,H37Ra,,,,,,MIC,≤20 µg/mL
O=C(Nc1ccc(F)cc1)N(Cc1cc2ccc(F)cc2[nH]c1=O)C1CCCCC1,H37Rv (ATCC 27294),,,broth dilution,,14 d,MIC,>64 µg/mL
COC1=CC2OC3OC(=O)CC3C2C(OCc2ccccc2)=C1,H37Rv,,,BACTEC,,,MIC bound,>12.5 µg/mL
O=C(Nc1cccc(Cl)c1)c1cc(Cl)ccc1OS(=O)(=O)c1ccccc1,H37Rv,,,,,21 d,MIC,4 µM
CO[C@H]1/C=C/O[C@@]2(C)Oc3c(C)c(O)c4c(O)c(cc(O)c4c3C2=O)NC(=O)/C(C)=C\C=C\[C@H](C)[C@H](O)[C@@H](C)[C@@H](O)[C@@H](C)[C@H](OC(C)=O)[C@@H]1C,BCG,,,,,,MIC,0.02 µg/mL
CCCCCCCCCCCCCC[n+]1cccc(C(N)=O)c1.[Br-],H37Rv,12.5 µg/mL,,BACTEC,,,inhibition,39%
CCCCCCCCCN1C(=O)CC(SCCNC(=O)c2ccc(C)cc2)C1=O,Clinical isolate (isoniazid-resistant),,,,,,MIC,≤20 µg/mL
O=C1NC(=O)/C(=C/c2cccc(OCc3ccccc3)c2)N1,H37Rv,,,,,,EC50,<6.25 µg/mL
O=C(Nc1ccc(Cl)c(Cl)c1)c1cc(Cl)ccc1OS(=O)(=O)c1ccccc1,H37Rv,,,,,14 d,MIC,1 µM
O=C1NC(=S)N/C1=C/c1cccc(OCc2ccc(Cl)cc2Cl)c1,H37Rv,6.25 µg/mL,,,,,inhibition,84%
Cc1nc2c(N)n[nH]c(=O)n2n1,H37Rv,6.25 µg/mL,,resazurin,,,inhibition,-16%
CO[C@H]1/C=C/O[C@@]2(C)Oc3c(C)c(O)c4c(O)c(c(/C=N/OCCCCCCOc5ccccc5)c(O)c4c3C2=O)NC(=O)/C(C)=C\C=C\[C@H](C)[C@H](O)[C@@H](C)[C@@H](O)[C@@H](C)[C@H](OC(C)=O)[C@@H]1C,H37Rv,,,,,,MIC,2 µg/mL
Cc1c(Cl)c(=O)oc2cc(OCCN3CCN(Cc4ccc(Br)cc4)CC3)ccc12,H37Rv,1 µM,,fluorescence,,,inhibition,2.97%
O=C(NCN1CCOCC1)c1cnccn1,MS6210,,,,,,MIC,100 µg/mL
O=C(Nc1ccc(Cl)cc1)c1cc(Cl)ccc1OS(=O)(=O)c1ccccc1,H37Rv,,,,,14 d,MIC,4 µM
N#Cc1ccc(-c2ccc(OCC(=O)O)cc2CN2CCN(c3ccccn3)CC2)cn1,H37Rv (ATCC 27294),,,broth dilution,,,MIC,32 µg/mL
Cc1c(Cl)c(=O)oc2cc(OCc3ccc(Br)cc3)ccc12,H37Rv,100 µM,,fluorescence,,,inhibition,7.14%
NNC(=O)c1ccncc1,S-3M (susceptible),,,,,,MIC,0.025 µg/mL
NCC[C@H](O)C(=O)N[C@@H]1C[C@H](N)[C@@H](O[C@H]2O[C@H](CN)[C@@H](O)[C@H](O)[C@H]2O)[C@H](O)[C@H]1O[C@H]1O[C@H](CO)[C@@H](O)[C@H](N)[C@H]1O,TN3432 (W),,,,,,MIC,>256 µg/mL
O=C1CCC2CCC(=O)N12,H37Rv,12.8 µg/mL,,BACTEC,,,inhibition,2%
O=C(O)COc1ccc(-c2ccccc2Cl)c(CN2CCN(c3ccccn3)CC2)c1,H37Rv (ATCC 27294),,,broth dilution,,,MIC,32 µg/mL
O=C1N(C2CCCCC2)CC2(Cc3ccccc3)c3ccccc3NC12O,H37Rv,,,BACTEC,,,MIC bound,>12.8 µg/mL
NNC(=O)c1ccncc1,H37RV #302,,,,,,MIC,<0.5 µg/mL
C/C(=N\NC(=S)N(C)C)c1ccccn1.[Cu][Br],V2475,,,,,,MIC90,6.25 µM
CO/C(=N\N=C\c1ccc(OC)c(F)c1)c1ccncc1,16PI,,,,,,MIC,>20 µg/mL
O=c1ccc2ccc(OCCN3CCC(Cc4ccccc4)CC3)cc2o1,H37Rv,50 µM,,fluorescence,,,inhibition,47.29%
CCOCCOCCO/N=C/c1c2c(O)c3c(O)c(C)c4c(c3c1O)C(=O)[C@@](C)(O/C=C/[C@H](OC)[C@@H](C)[C@@H](OC(C)=O)[C@H](C)[C@H](O)[C@H](C)[C@@H](O)[C@@H](C)/C=C/C=C(/C)C(=O)N2)O4,H37Rv,,,,,,MIC,0.5 µg/mL
CCCCCCCCCN1C(=O)CC(C)C1=O,Clinical isolate (isoniazid-resistant),,,,,,MIC,≤20 µg/mL
CO[C@H]1/C=C/O[C@@]2(C)Oc3c(C)c(O)c4c(O)c(c(/C=N/OCCN5CCOCC5)c(O)c4c3C2=O)NC(=O)/C(C)=C\C=C\[C@H](C)[C@H](O)[C@@H](C)[C@@H](O)[C@@H](C)[C@H](OC(C)=O)[C@@H]1C,H37Rv,,,,,,MIC,0.5 µg/mL
CCN(CC)CNC(=O)c1cnccn1,ATCC35801,,,,,,MIC,2 µg/mL
CC(NC(=O)c1ccccc1C(F)(F)F)c1nnc(SCCOc2ccc(Cl)cc2)n1C,H37Rv (ATCC 27294),,,broth dilution,,,MIC,>32 µg/mL
O=C(Nc1ccc(C(F)(F)F)cc1)c1ccc(Cl)cc1OS(=O)(=O)c1ccccc1,H37Rv,,,,,14 d,MIC,2 µM
COc1ccc(/C=C2/NC(=S)NC2=O)c(OC)c1,H37Rv,6.25 µg/mL,,,,,inhibition,88%
COc1ccc2ccc3c4c(c(=O)[nH]c3c2n1)CCC4,H37Rv,12.5 µg/mL,,BACTEC,,,inhibition,20%
COC(=O)COc1ccc(-c2ccc(C#N)cc2)c(CN2CCN(c3ccccn3)CC2)c1,H37Rv (ATCC 27294),,,broth dilution,,,MIC,4 µg/mL
OCC1OC(n2ccn([C@@H]3O[C@H](CO)[C@@H](O)[C@H]3O)c2=S)C(O)C1O,H37Rv,12.5 µg/mL,,BACTEC,,,inhibition,0%
C[C@@H]1Cn2cc(C(=O)O)c(=O)c3cc(F)c(N4CCN(/C(N)=N/C(N)=NCCCCCCN=C(N)/N=C(\N)N5CCN(c6c(F)cc7c(=O)c(C(=O)O)cn8c7c6O[C@@H](C)C8)CC5)CC4)c(c32)O1,ATCC35821,,,broth dilution,,,MIC,2.5 µg/mL
O=C(O)COc1ccc(-c2cccc(Cl)c2)c(CN2CCN(c3ccccn3)CC2)c1,H37Rv (ATCC 27294),,,broth dilution,,,MIC,32 µg/mL
O=C(NCN1CCNCC1)c1cnccn1,PZA-resistant,,,,,,MIC,100 µg/mL
CO[C@H]1/C=C/O[C@@]2(C)Oc3c(C)c(O)c4c(O)c(c(/C=N/N5CCN(C)CC5)c(O)c4c3C2=O)NC(=O)/C(C)=C\C=C\[C@H](C)[C@H](O)[C@@H](C)[C@@H](O)[C@@H](C)[C@H](OC(C)=O)[C@@H]1C,PR455,,,,,,MIC,0.04 µg/mL
Cc1cnc(C(=O)NCN2CCCC2)cn1,PZA-resistant,,,,,,MIC,100 µg/mL
O=C1NC(=S)NC1/C=C/c1ccccc1,H37Rv,6.25 µg/mL,,,,,inhibition,94%
C[C@@H]1CN(c2c(F)c(N)c3c(=O)c(C(=O)O)cn(C4CC4)c3c2F)C[C@H](C)N1,MDR-2037 (MDR),,,,,,MIC,0.1 µg/mL
CC(=O)N1CCC23c4ccccc4N(C)C2CC(=O)CC13,H37Rv,,,BACTEC,,,MIC,≥12.5 µg/mL
COc1ccc(/C(C)=N/NC(=O)c2ccncc2)c(OC)c1,16PI,,,,,,MIC,>20 µg/mL
CCOc1ccc(NC(=S)Nc2ccc(OCC(C)C)cc2)cc1,Ravenel #226,,,,,,MIC,3.9 µg/mL
COC1CC(OC2CCC3(C)C(CCC4C3CCC3(C)C(C5=CC(=O)OC5)CCC43O)C2)OC(C)C1O,H37Rv,,,BACTEC,,,MIC bound,>12.5 µg/mL
NC(=O)c1cnccn1,PZA-resistant,,,,,,MIC,>300 µg/mL
CCCCCCCCCN1C(=O)CCC1=O,Clinical isolate (isoniazid-resistant),,,,,,MIC,≤20 µg/mL
CC(=O)Oc1c(C)c2c(O)c3c1C1=C(OCOC1=C(C)C3=O)/C(C)=C\C(C)(O)C(O)C(C)C(O)C1C(=O)OC(C(C)/C=C\C=C(\C)C(=O)N2)C(C)C1O,H37Rv,,,BACTEC,,,MIC,≥12.5 µg/mL
CCCCCCCCCN1C(=O)C=C(C)C1=O,Clinical isolate (isoniazid-resistant),,,,,,MIC,≤20 µg/mL
C/C(=N\NC(=O)c1ccncc1)c1cccc(F)c1,H37Rv,,,,,,MIC,>20 µg/mL
C=CCSC(=S)Nc1nc2ccc(C)cc2s1,H37Rv,,,BACTEC,,,MIC bound,≤128 µg/mL
CC1=CC(=O)N(CC2CCC3CC2C3(C)C)C1=O,H37Ra,,,,,,MIC,≤20 µg/mL
CO[C@H]1/C=C/O[C@@]2(C)Oc3c(C)c(O)c4c(O)c(c(/C=N/N5CCN(C)CC5)c(O)c4c3C2=O)NC(=O)/C(C)=C\C=C\[C@H](C)[C@H](O)[C@@H](C)[C@@H](O)[C@@H](C)[C@H](OC(C)=O)[C@@H]1C,,,,,513Lys,,MIC99,>640 µg/mL
Cc1c(Cl)c(=O)oc2cc(OCc3ccccc3)ccc12,H37Rv,50 µM,,fluorescence,,,inhibition,12.09%
O=C(Nc1cccc(Br)c1)c1ccc(Cl)cc1OS(=O)(=O)c1ccccc1,H37Rv,,,,,21 d,MIC,16 µM
S=C(S)N1CCN(C(=S)S)CC1,H37Rv,128 µg/mL,,BACTEC,,,inhibition,87%
C=CCOc1ccc(/C=C2/NC(=S)NC2=O)cc1,H37Rv,6.25 µg/mL,,,,,inhibition,93%
NC(=O)c1cnccn1,Isolate 11823 monodrug-resistant,,,,,,MIC,>300 µg/mL
O=[N+]([O-])c1ccc(-c2csc(Nc3ccccn3)n2)o1,H37Rv,12.5 µg/mL,,BACTEC,,,inhibition,53%
CC1(C)CC(N=c2cc3n(-c4ccccc4Cl)c4ccccc4nc-3cc2Nc2ccccc2Cl)CC(C)(C)N1,H37Rv,,Macrophages,,,inside macrophages,MIC,0.06 µg/mL
CCOc1c(N=Nc2ccc(Cl)cc2)c(-c2ccccc2)nn1C(=S)S,H37Rv,12.5 µg/mL,,BACTEC,,,inhibition,44%
CC1(C)CC(N=c2cc3n(-c4cc(Cl)cc(Cl)c4)c4ccccc4nc-3cc2Nc2cc(Cl)cc(Cl)c2)CC(C)(C)N1,H37Rv,,Macrophages,,,inside macrophages,MIC,0.03 µg/mL
COC(=O)c1nc(C)c(C)nc1N,H37Rv,,,BACTEC,,,MIC bound,>12.5 µg/mL
Cc1cc(=O)oc2cc(OCCN3CCC(Cc4ccccc4)CC3)ccc12,H37Rv,50 µM,,fluorescence,,,inhibition,70.5%
Cc1c(C)c2c(c(C)c1O)SC(CC(=O)O)C(=O)O2,H37Rv,12.5 µg/mL,,BACTEC,,,inhibition,-21%
CN[C@@H]1[C@H](O[C@H]2[C@H](O[C@H]3[C@H](O)[C@@H](O)[C@H](N=C(N)N)[C@@H](O)[C@@H]3N=C(N)N)O[C@@H](C)[C@]2(O)C=O)O[C@@H](CO)[C@H](O)[C@H]1O,76,,,,,,MIC,4 µg/mL
CCOC(=O)c1cc(-c2ccc3ccccc3n2)c(O)c2cc3ccccc3nc12,H37Rv,,,BACTEC,,,MIC bound,>12.5 µg/mL
CCCCCCCCCN1C(=O)CC(Nc2ccc(N3CCCCC3)cc2)C1=O,Clinical isolate (isoniazid-resistant),,,,,,MIC,≤20 µg/mL

Again, the opening 5 rows:

| smiles | strain | tested at | cells | read by | changes | setting | measure | result |
|---|---|---|---|---|---|---|---|---|
| CCCCCCCCCN1C(=O)CC(SCCNC(=O)C2CCCC2)C1=O | Clinical isolate (isoniazid-resistant) |  |  |  |  |  | MIC | ≤20 µg/mL |
| CC(=O)OC1CCn2nnc(COC(=O)NC(C)C)c21 | H37Rv | 6.25 µg/mL |  | resazurin |  |  | inhibition | 15% |
| CCCCCO/N=C/c1c2c(O)c3c(O)c(C)c4c(c3c1O)C(=O)[C@@](C)(O/C=C/[C@H](OC)[C@@H](C)[C@@H](OC(C)=O)[C@H](C)[C@H](O)[C@H](C)[C@@H](O)[C@@H](C)/C=C/C=C(/C)C(=O)N2)O4 | H37Rv |  |  |  |  |  | MIC | 1 µg/mL |
| COc1nc2ccc(Br)cc2cc1[C@@H](c1ccccc1)[C@@](O)(CCN(C)C)c1cccc2ccccc12 | clinical isolate MAL020139 |  |  | resazurin |  |  | MIC90 | 0.03125 µg/mL |
| C[C@]1(COc2ccc(N3CCC(Oc4ccc(OC(F)(F)F)cc4)CC3)cc2)Cn2cc([N+](=O)[O-])nc2O1 | 31 strains (rifampicin-susceptible) |  |  |  |  |  | MIC90 | 0.012 µg/mL |